Measurements published in article PMC6938011, “Antiplasmodial profile of selected compounds from Malaria Box: in vitro evaluation, speed of action and drug combination studies” (Malaria Journal, 2019).

What was measured:
[1] = test system: Hepatocarcinoma cells (HepG2); assay: Cytotoxicity evaluation, MTT assay; assay type: cell-based, human; conditions: ratio IC50^HepG2 (MTT) / IC50^Pf
Protocol: (§1) Hepatocarcinoma cells (HepG2) were cultivated in RPMI medium supplemented with 10% (v/v) fetal bovine serum and 0.2% (v/v) penicillin/streptomycin. The antibiotics were added to the medium to eliminate the potential interference of microbial contamination. Cells were cultivated at 37 °C and 5% CO2; the supplemented medium was changed every 2 days.
(§2) For the experimental procedures, cells were trypsinized and transferred to a 96-well plate at 30,000 cells per well and incubated at 37 °C overnight for cell adhesion. Then, serial dilutions of the inhibitor candidates were added to the plate. Cells without any compounds were used as positive growth controls. The plate was incubated at 37 °C and 5% CO2 for 72 h. After incubation, the highest compound concentration to be considered (highest concentration without precipitation) was observed by microscopy. Cytotoxicity was evaluated by two different methods. The first is a colorimetric assay based on metabolic cell activity in the presence of 3-(4,5-dimethylthiazol-2-yl)-2,5-diphenyltetrazolium bromide (MTT). Briefly, mitochondrial enzymes can convert the MTT dye into the purple insoluble compound formazan. To each well, 20 µL MTT at 5 mg/mL was added, followed by incubation at 37 °C for 3 to 5 h. After incubation, the supernatant was removed, and formazan crystals were solubilized in 100 µL DMSO. The absorbance, which is proportional to the number of viable cells, was determined using a SpectraMAX Plus 384 plate reader (Molecular Devices Corp., Sunnyvale, CA) (λ = 570 nm). The second method is based on the uptake of neutral red, a dye that is retained inside the lysosomes of viable cells. To each well, after removal of culture media, 200 µL neutral red medium 40 µg/mL was added, followed by incubation at 37 °C for 3 to 5 h. After incubation, supernatant was dispensed, and 200 µL 0.5% (v/v) formaldehyde in 1% (m/v) CaCl2 was added to remove excess of the dye for 5 min. Supernatant was dispensed, and 100 µL alcohol-acid solution (50% (v/v) ethanol, 1% (v/v) glacial acetic acid) was added, and the plate was stirred until a homogeneous solution was formed. The absorbance was determined using a SpectraMAX Plus 384 plate reader (Molecular Devices Corp., Sunnyvale, CA) (λ = 540 nm). For both methods, the half maximal inhibitory concentration (IC50^HepG2) was determined by non-linear regression analysis of the resulting concentration-response curve using the software Origin 2016 (OriginLab Corporation).

[2] = test system: Hepatocarcinoma cells (HepG2); assay: Cytotoxicity evaluation, neutral red assay; assay type: cell-based, human; conditions: ratio IC50^HepG2 (neutral red) / IC50^Pf
Protocol: as §1, §2

| Structure (SMILES) | SI^MTT Average (confidence interval-95%) [1] | SI^NR Average (confidence interval-95%) [2] |
| --- | --- | --- |
| C[C@H]1[C@H](OC(=O)CCC(=O)O)O[C@@H]2O[C@@]3(C)CC[C@H]4[C@H](C)CC[C@@H]1[C@@]24OO3 [Artesunate, reference compound] | 7000 (6000–8000) | 7000 (6000–8000) |
| CN1CCN(c2ccc(Nc3c4ccccc4nc4ccccc34)cc2)CC1 [Compound 1] | 43.4 (42.6–44.2) | 45.1 (44.6–45.6) |
| CCOC(=O)C1=C(C)N=c2sc(=Cc3cc(Cl)ccc3O)c(=O)n2C1c1ccc(OC)cc1 (stereo not drawn) [Compound 2] | 60 (50–70) | 55 (46–64) |
| Brc1ccc(Nc2nc3ccccc3nc2Nc2ccc(Br)cc2)cc1 [Compound 3] | 15.1 (14.6–15.6) | > 16 |
| O=[N+]([O-])c1ccc(C=NNc2nc3ccccc3[nH]2)cc1 [Compound 4] | > 12 | > 12 |
| CCn1c(CN2CCN(Cc3ccccc3)CC2)nc2cc(NC(=O)c3cccs3)ccc21 [Compound 5] | 340 (280–400) | > 290 |
| O=C1c2ccccc2-c2nnc(-c3ccc(Br)cc3)cc21 [Compound 6] | > 6.6 | > 6.6 |
| O=C(Nc1ccc(C23CC4CC(CC(c5ccccc5)(C4)C2)C3)cc1)c1cccs1 [Compound 7] | > 21 | > 21 |
| Fc1ccc2[nH]c3c(NCCCN4CCOCC4)ncnc3c2c1 [Compound 11] | > 29 | > 29 |
